Results of unrelated studies side by side (data: NIAID ChemDB).

All rows: whole-cell or culture tests; species: HIV-1

Lines come from different laboratories, so protocols vary.

compound,cells,changes,read by,strain or isolate,setting,dose,measure,result
Cc1ccnc2c1NC(=O)c1cccnc1N2C1CC1,CEM + CEM-SS,RT-T139I,XTT,NL4-3,-,-,EC50,0.002 µM
CCn1nc(Cc2cccc3ccccc23)cc1C1CCN(C[C@H]2CN([C@@H](C(=O)O)C(C)(C)C)C[C@@H]2c2cccc(F)c2)CC1,HeLa,-,β-galactosidase,BaL,50% human serum,-,EC90,0.011 µM
CC(C)c1nc(CN(C)C(=O)N[C@H](C(=O)N[C@@H](Cc2ccccc2)C[C@H](O)[C@H](Cc2ccccc2)NC(=O)OCc2cncs2)C(C)C)cs1,MT-4,PR-M46I I84V,p24,NL4-3-P28 (PR M46I I84V),-,-,EC90,0.9 µM
Cc1cn([C@H]2C=C[C@@H](CO)O2)c(=O)[nH]c1=O,HeLa,RT-M41L V118I M184V,luciferase,Recombinant,-,-,fold resistance,1.1
Cc1cn([C@H]2C[C@H](N=[N+]=[N-])[C@@H](COP(=O)(O)OC[C@H]3OC(O)[C@@H](O)[C@@H](O)[C@@H]3O)O2)c(=O)[nH]c1=O,U-937,-,RT activity,LAV-Bru,11 d,5 µM,inhibition,0%
O=C1N(Cc2ccc(CO)cc2)[C@H](Cc2ccccc2)[C@H](O)[C@@H](O)[C@@H](Cc2ccccc2)N1Cc1ccc(CO)cc1,PBMC,PR-L10V T12I G16E R57K I64V,p24,Isolate A PR L10V/T12I/G16E/R57K/I64V,-,-,EC95,0.2 µM
N#Cc1cc2[nH]c3ccccc3c2n(-c2ccc([N+](=O)[O-])cc2)c1=O,HeLa,RT-G190S,luciferase,NNRTI-resistant,-,-,fold resistance,1.7
CCn1nc(Cc2ccc(OC3CC3)cc2)cc1C1CCN(C[C@H]2CN([C@@H](C(=O)O)C(C)(C)C)C[C@@H]2c2cccc(F)c2)CC1,HeLa,-,β-galactosidase,BaL,-,-,EC90,<0.00014 µM
Cc1cn([C@H]2C[C@H](N=[N+]=[N-])[C@@H](CO)O2)c(=O)[nH]c1=O,CEM,-,RT activity,LAV-Bru,7 d,25 µM,inhibition,97%
O=C1N(Cc2ccc(CO)cc2)[C@H](Cc2ccccc2)[C@H](O)[C@@H](O)[C@@H](Cc2ccccc2)N1Cc1ccc(CO)cc1,PBMC,-,p24,Clinical isolate D2,-,0.13 µM,inhibition,90%
CCn1nc(Cc2ccc(C#N)cc2)cc1C1CCN(C[C@H]2CN([C@@H](C(=O)O)C(C)(C)C)C[C@@H]2c2cccc(F)c2)CC1,HeLa,-,β-galactosidase,BaL,50% human serum,-,EC90,0.0037 µM
CC(C)CN(C[C@@H](O)[C@H](Cc1ccccc1)NC(=O)[C@H](CC(N)=O)NC(=O)c1ccc2ccccc2n1)C(=O)NC(C)(C)C,MT-4,PR-L63P V82T I84V,p24,NL4-3,-,-,EC95,1.5 µM
Cc1cn([C@H]2C[C@H](N=[N+]=[N-])[C@@H](CO)O2)c(=O)[nH]c1=O,CEM + CEM-SS,RT-Y181C,XTT,Nevirapine-resistant (RT Y181C),-,-,EC50,0.03 µM
O=C(O)P(=O)(O)O,PBL,-,RT activity,IIIB,21 d,16 µM,inhibition,59%
N#CC[C@H](C1CCCC1)n1cc(-c2ncnc3[nH]ccc23)cn1,Primary T lymphocytes,4xAZT,p24 / ELISA,-,-,-,EC90,2.4 µM
CCn1nc(Cc2ccc(F)cc2F)cc1C1CCN(C[C@H]2CN([C@@H](C(=O)O)C(C)C)C[C@@H]2c2cccc(F)c2)CC1,HeLa,-,β-galactosidase,BaL,-,-,EC90,0.1 µM
O=c1[nH]cnc2c1ncn2C1CC[C@@H](CO)O1,Primary T lymphocytes,M184V,p24 / ELISA,-,-,-,EC90,44.9 µM
Cc1cc(S(N)(=O)=O)ccc1NC(=O)COc1ccc(Cl)cc1C(=O)c1cc(Cl)cc(C#N)c1,MAGI,RT-V106I P236L,β-galactosidase,NNRTI-resistant (RT V106I P236L),-,-,EC50,0.007 µM
CC[C@H](C)[C@H](C(=O)O)N1C[C@H](CN2CCC(c3cc(Cc4ccc(C(F)(F)F)cc4)nn3CC)CC2)[C@@H](c2cccc(F)c2)C1,HeLa,-,β-galactosidase,BaL,-,-,EC90,<0.00014 µM
CC(C)Nc1cccnc1N1CCN(C(=O)c2cc3ccccc3[nH]2)CC1,MT-2,-,-,LAV,-,1 µM,inhibition,100%
CCCc1cc(=O)oc2c3c(c4c(c12)OC(C)(C)C=C4)O[C@H](C)[C@@H](C)[C@@H]3O,CEM + CEM-SS,RT-A98G,XTT,NL4-3,-,-,EC50,0.2 µM
CC[C@H](C)[C@H](C(=O)O)N1C[C@H](CN2CCC(c3cc(Cc4ccc(O)cc4)nn3CC)CC2)[C@@H](c2cccc(F)c2)C1,HeLa,-,β-galactosidase,BaL,50% human serum,-,EC90,0.011 µM
CO[P@](=O)(c1cc(C)cc(/C=C/C#N)c1)c1c(C(N)=O)[nH]c2ccc(Cl)cc12,-,Y181C/K103N,-,BH10,-,-,EC50,<0.0231 µM
Cc1cn([C@H]2C[C@H](N=[N+]=[N-])[C@@H](COP(=O)(O)OC[C@H]3OC(O)[C@H](O)[C@@H](O)[C@@H]3O)O2)c(=O)[nH]c1=O,CEM,-,RT activity,LAV-Bru,7 d,0.2 µM,inhibition,92%
CC(C)(C)NC(=O)[C@@H]1C[C@@H]2CCCC[C@@H]2CN1C[C@@H](O)[C@H](Cc1ccccc1)NC(=O)[C@H](CC(N)=O)NC(=O)c1ccc2ccccc2n1,PBL,-,-,-,-,-,EC99,0.015 µM
CC(C)=CCN1c2cc(Cl)cc3[nH]c(=S)n(c23)C[C@@H]1C,MT-4,RT-M41L T215Y,-,-,-,-,EC95,0.1 µM
Cc1cn([C@H]2C[C@H](N=[N+]=[N-])[C@@H](CO)O2)c(=O)[nH]c1=O,MT-2,ATV-P36 atazanavir-resistant mutant,ATP,IIIB,-,-,fold resistance,1.2
Cc1cn([C@H]2C[C@H](N=[N+]=[N-])[C@@H](CO)O2)c(=O)[nH]c1=O,MT-2,-,cytopathic effect / XTT,IIIB,-,-,EC50,0.04 µM
CC(C)CN(C[C@@H](O)[C@H](Cc1ccccc1)NC(=O)O[C@H]1CCOC1)S(=O)(=O)c1ccc(N)cc1,MT-2,K112M K113E V128I,p24 / ELISA,IIIB,-,-,fold resistance,0.9
Cc1cn([C@H]2C=C[C@@H](CO)O2)c(=O)[nH]c1=O,Primary T lymphocytes,-,p24 / ELISA,LAI,-,-,EC90,6.4 µM
C#C[C@]1(CO)O[C@@H](n2cnc3c(N)nc(F)nc32)C[C@@H]1O,MT4-GFP,T165A,fluorescence,Clinical isolate,-,-,EC50,0.0009 µM
Cc1ccc(S(=O)(=O)N(CC(C)C)C[C@@H](O)[C@H](Cc2ccccc2)NC(=O)O[C@H]2CO[C@H]3OCC[C@H]32)cc1,MT-2,K112M K113E V128I M200I H219P I401T R409K D437N L441P R41K,p24 / ELISA,IIIB,-,-,fold resistance,7.3
c1cc(CN2CCCNCCNCCCNCC2)ccc1CN1CCCNCCNCCCNCC1,PBMC,-,p24,SW12 CLADE C X4,-,0.1 µM,inhibition,31%
Cn1c2ccccc2c2c1cc(C#N)c(=O)n2-c1ccc([N+](=O)[O-])cc1,HeLa,RT-M41L A62V S68N G112S M184V,luciferase,Recombinant,-,-,fold resistance,>1
CC(C)=CCN1Cc2cccc3[nH]c(=S)n(c23)C[C@@H]1C,CEM + CEM-SS,RT-T139I,XTT,Calanolide A-resistant (RT T139I),-,-,fold resistance,4
CC(C)=CCN1Cc2cc(Cl)cc3[nH]c(=S)n(c23)C[C@@H]1C,HT4 + HT4 LacZ-1,RT-L74V Y181C,plaque count,HXB2,-,-,fold resistance,36.4

Repeating the first 5 entries:

compound,cells,changes,read by,strain or isolate,setting,dose,measure,result
Cc1ccnc2c1NC(=O)c1cccnc1N2C1CC1,CEM + CEM-SS,RT-T139I,XTT,NL4-3,-,-,EC50,0.002 µM
CCn1nc(Cc2cccc3ccccc23)cc1C1CCN(C[C@H]2CN([C@@H](C(=O)O)C(C)(C)C)C[C@@H]2c2cccc(F)c2)CC1,HeLa,-,β-galactosidase,BaL,50% human serum,-,EC90,0.011 µM
CC(C)c1nc(CN(C)C(=O)N[C@H](C(=O)N[C@@H](Cc2ccccc2)C[C@H](O)[C@H](Cc2ccccc2)NC(=O)OCc2cncs2)C(C)C)cs1,MT-4,PR-M46I I84V,p24,NL4-3-P28 (PR M46I I84V),-,-,EC90,0.9 µM
Cc1cn([C@H]2C=C[C@@H](CO)O2)c(=O)[nH]c1=O,HeLa,RT-M41L V118I M184V,luciferase,Recombinant,-,-,fold resistance,1.1
Cc1cn([C@H]2C[C@H](N=[N+]=[N-])[C@@H](COP(=O)(O)OC[C@H]3OC(O)[C@@H](O)[C@@H](O)[C@@H]3O)O2)c(=O)[nH]c1=O,U-937,-,RT activity,LAV-Bru,11 d,5 µM,inhibition,0%

Percent inhibition refers to the dose given; in toxicity tests it is the harm to the cells. Fold resistance has wild type as its base. Blank or dashed fields: not listed here. ECn: concentration that inhibits the pathogen or its effect by n%.